One may read the inhibition as the change of the read-out against control, counted positive when it falls.

By UniProt entry, the sequences of proteins in these tests, tags left out.
UniProt P9WMN3, whole entry: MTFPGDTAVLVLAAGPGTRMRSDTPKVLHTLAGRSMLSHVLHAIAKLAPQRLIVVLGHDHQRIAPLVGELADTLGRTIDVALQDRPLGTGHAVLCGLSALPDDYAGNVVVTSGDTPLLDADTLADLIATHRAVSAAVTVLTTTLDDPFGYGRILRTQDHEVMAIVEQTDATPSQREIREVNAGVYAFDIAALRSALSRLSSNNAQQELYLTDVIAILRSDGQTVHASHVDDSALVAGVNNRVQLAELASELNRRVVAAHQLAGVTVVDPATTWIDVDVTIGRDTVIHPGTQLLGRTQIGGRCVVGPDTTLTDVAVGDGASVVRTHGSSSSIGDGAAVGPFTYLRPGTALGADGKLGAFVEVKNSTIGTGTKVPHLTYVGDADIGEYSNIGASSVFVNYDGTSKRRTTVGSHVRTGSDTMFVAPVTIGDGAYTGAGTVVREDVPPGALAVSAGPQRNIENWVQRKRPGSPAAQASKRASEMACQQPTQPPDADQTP

Among the data in PubChem BioAssay AID1376 (SRMLSC, 2008) are inhibition values, retold here.

The list shows a part of the results, in another mix than the full data. Potency and affinity values are given separately. Some salts or complexes appear as unconnected parts, following the source record. The source made the active and inactive calls. No stated cut-off is given here; in the data, active means inhibition above about 13%; inconclusive means no clear call, values can overlap the other calls; inactive means below that.

This experiment deals with Bifunctional protein GlmU (Mycobacterium tuberculosis (strain ATCC 25618 / H37Rv)) (UniProt P9WMN3). The experiment can be described thus: inhibition of mycobacterial GlmU enzyme – biochemical, glucosamine-1-phosphate acetyltransferase (AID 1376).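 Further: 0% = complete reaction with vehicle and 100% = reaction without substrate.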 The following applies: M. tuberculosis GlmU acetyltransferase enzyme assay; active compounds read high;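 tested at 30 µM in the primary screen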.
`CCN(CC)CCCOC(=O)C(O)(c1ccccc1)c1ccccc1`: the inhibition was inactive: 0.37%. Consider `CCOC(=O)c1ccc(NP(C)(=O)Oc2ccccc2)cc1` (configuration not stated), for which the inhibition was inactive: -3.66%. Take `COc1ccccc1OP(C)(=O)Nc1ccc(C)cc1` (configuration not stated): the inhibition was inactive: 0.96%. As for `COc1ccccc1OP(C)(=O)Nc1cc(Cl)ccc1C` (configuration not stated), the inhibition is inactive: 4.95%. Take `Cc1cc(C)cc(OP(C)(N)=O)c1` (configuration not stated): the inhibition was inactive: -3.31%.

With `CC(C)(C)c1ccc(OP(C)(=O)Nc2ccc(SC(F)(F)F)cc2)cc1` (configuration not stated), the inhibition is inactive: 0.52%.

Turning to `Cc1cccc(C)c1OP(C)(N)=O` (configuration not stated), the inhibition was inactive: 2.87%. As for `O=[N+]([O-])c1ccc2c(c1)C=Nc1ccccc1O2`, the figure is inactive: -2.18%; as for `CP(=S)(Nn1cnnc1)Oc1ccccc1` (configuration not stated), inactive: -6.64%. `COc1ccccc1OP(C)(=O)Nc1ccccc1` (configuration not stated): the inhibition is inactive: 0.42%. In the case of `CP(=O)(Nc1ccccc1Br)Oc1ccccc1` (configuration not stated), the inhibition was inactive: -9.04%.

Turning to `CCOP(C)(=S)SCC(=O)NC(C)C(=O)O` (configuration not stated), the inhibition was inactive: 3.08%. The value for `CCOC(=O)c1ccc(NP(C)(=O)Oc2ccc(OC)cc2)cc1` (configuration not stated) was inactive: 0.77%. On to `CP(=O)(Nc1ccccn1)Oc1ccc(Cl)cc1` (configuration not stated), for which the inhibition was inactive: 2.07%. Turning to `CP(=O)(Nc1ccc(SC(F)(F)F)cc1)Oc1ccc(Cl)cc1` (configuration not stated), the inhibition was inactive: -1.84%. For `Cc1cccc(C)c1OP(C)(=O)Nc1ccc(SC(F)(F)F)cc1` (configuration not stated), the inhibition is inactive: -1.33%. For the compound `CP(=O)(Oc1ccccc1)OC(c1ccccc1)C(F)(F)F` (configuration not stated), the inhibition is inactive: 0.4%. As for `CP(=O)(NC(=O)Nc1ccccc1)Oc1ccccc1` (configuration not stated), the figure is inactive: 0.65%; as for `CCc1ccc(OP(C)(=O)N2CCN(c3ccc([N+](=O)[O-])cc3)CC2)cc1` (configuration not stated), inactive: 2.23%. Regarding `Cc1cc(C)cc(OP(C)(=O)Nc2ccc(SC(F)(F)F)cc2)c1` (configuration not stated), the inhibition was inactive: -2.34%.

Take `Cc1nc2ccc3ccccc3c2s1.O=[N+]([O-])c1cc([N+](=O)[O-])c(O)c([N+](=O)[O-])c1`: the inhibition is inactive: 0.75%. Consider `O=[N+]([O-])c1cc([N+](=O)[O-])c(-n2nnc3ccccc32)c([N+](=O)[O-])c1`, for which the inhibition was inactive: 9.26%. Regarding `CN1CCCCC1COC(=O)C1(O)c2ccccc2CCc2ccccc21` (configuration not stated), the inhibition is inactive: -1.31%. As for `COc1ccccc1OP(C)(=O)Nc1c(C)cccc1C` (configuration not stated), the inhibition was inactive: 6.4%.

Take `CCCOc1ccc(NP(C)(=O)Oc2ccc(Cl)cc2)cc1` (configuration not stated): the inhibition was inactive: -0.69%. Take `CP(=O)(Nc1ccc(SC(F)(F)F)cc1)Oc1ccccc1` (configuration not stated): the inhibition is inactive: 0.31%. Consider `O=[N+]([O-])c1cc([N+](=O)[O-])c(Nc2nnnn2CCO)c([N+](=O)[O-])c1`, for which the inhibition was inactive: 0.03%. `CCOC(=O)C(CC)C1=NC(C)(C)Cc2ccccc21.O=[N+]([O-])c1cc([N+](=O)[O-])c(O)c([N+](=O)[O-])c1` (configuration not stated): the inhibition is inactive: -2.88%.

In the case of `CC1=NCCc2c1[nH]c1ccccc21.O=[N+]([O-])c1cc([N+](=O)[O-])c(O)c([N+](=O)[O-])c1`, the inhibition is inactive: -10.8%.

For `O=C(O)c1cccc(Nc2c([N+](=O)[O-])cc([N+](=O)[O-])cc2[N+](=O)[O-])c1`, the inhibition was inactive: -5%. For `Cc1cc(C)cc(OP(C)(=O)Nc2ccccn2)c1` (configuration not stated), the inhibition was inactive: 4.25%.

`CP(=O)(Nc1cccc(Br)c1)Oc1ccccc1` (configuration not stated): the inhibition is inactive: -2.21%.

`Cc1ccc(C)c(NP(C)(=O)Oc2ccccc2)c1` (configuration not stated): the inhibition was inactive: -0.69%. With `COc1ccccc1OP(C)(=O)Nc1cccc(Br)c1` (configuration not stated), the inhibition was inactive: -5.32%. The value for `Cc1cc(C)cc(OP(C)(=O)Nc2ccc(C)cc2C)c1` (configuration not stated) was inactive: 4.16%; that for `CCOC(=O)c1ccc(NP(C)(=O)Oc2cc(C)cc(C)c2)cc1` (configuration not stated) was inactive: 2.72%.

Regarding `O=C(OCCN1CCN(CCOCc2ccccc2)CC1)C(O)(c1ccccc1)c1ccccc1`, the inhibition was inactive: 1.02%. With `O=C(OC1CN2CCC1CC2)c1ccc([N+](=O)[O-])cc1` (configuration not stated), the inhibition was inactive: -3.65%.

In the case of `COc1ccc2c(c1O)-c1c(O)c(OC)cc3c1[C@H](C2)[N+](C)(C)CC3.O=[N+]([O-])c1cc([N+](=O)[O-])c([O-])c([N+](=O)[O-])c1[O-]`, the inhibition was inactive: 5.78%. As for `CC(C)c1ccc(OP(C)(=O)Nc2ccc(SC(F)(F)F)cc2)cc1` (configuration not stated), the inhibition is inactive: -4.54%. Turning to `CP(=O)(Nc1ccccc1F)Oc1ccccc1` (configuration not stated), the inhibition is inactive: 0.77%. As for `CCN(CC)CCCOC(=O)C(O)(c1ccccc1)C1CCCCC1` (configuration not stated), the inhibition was inactive: 5.53%.

On to `CCCCCOc1ccc(NP(C)(=O)Oc2ccc(Cl)cc2Cl)cc1` (configuration not stated), for which the inhibition is inactive: 3.49%. For `CP(=O)(Nc1ccccc1)Oc1ccc(F)cc1` (configuration not stated), the inhibition was inactive: -2.39%. Take `COc1ccc(OP(C)(=O)Nc2ccc(SC(F)(F)F)cc2)cc1` (configuration not stated): the inhibition was inactive: -0.39%. For `CCOC(=O)c1ccc(NP(C)(=O)Oc2ccc(F)cc2)cc1` (configuration not stated), the inhibition was inactive: 1.54%.

Take `O=[N+]([O-])c1cc([N+](=O)[O-])c(NCC2CCS(=O)(=O)C2)c([N+](=O)[O-])c1` (configuration not stated): the inhibition is inactive: -7.01%. Consider `Cc1cc(-c2cccc3ccccc23)c(C)cn1.O=[N+]([O-])c1cc([N+](=O)[O-])c(O)c([N+](=O)[O-])c1`, for which the inhibition was inactive: 7.42%. With `O=[N+]([O-])c1ccc(OP2(=O)COCCO2)cc1` (configuration not stated), the inhibition is inactive: 7.79%. `COc1ccc(OP(C)(=O)Nc2cccc(Br)c2)cc1` (configuration not stated): the inhibition is inactive: -1.3%. As for `COc1ccc(NP(C)(=O)Oc2ccccc2OC)cc1` (configuration not stated), the inhibition is inactive: 1.1%. As for `CN(C)CCOC(=O)C(O)(c1ccccc1)C1CCCCC1` (configuration not stated), the figure is inactive: -3.19%; as for `CP(=O)(Nc1ccc2c(c1)OCCO2)Oc1ccccc1` (configuration not stated), inactive: -1.67%; as for `Cc1ccccc1NP(C)(=O)Nc1ccccc1C`, inactive: 2.94%. As to `CP(=O)(Nc1ccc(SC(F)(F)F)cc1)Oc1ccc(F)cc1` (configuration not stated), the inhibition was inactive: -0.46%. As to `CCOP(C)(=S)SCC(=O)NC(C)(CC)C(=O)O` (configuration not stated), the inhibition is inactive: -0.38%. Consider `CP(=O)(Nc1ccc(Cl)cc1)Oc1ccc(F)cc1` (configuration not stated), for which the inhibition is inactive: -6.6%. As for `COc1ccccc1OP(C)(=O)Nc1ccccc1Br` (configuration not stated), the inhibition was inactive: 2.49%. `CC(C)(C)c1ccc(OP(C)(=O)O)cc1`: the inhibition was inactive: 1.69%.

For `CN(C)C(=O)c1c([N+](=O)[O-])cc([N+](=O)[O-])cc1[N+](=O)[O-]`, the inhibition is inactive: 6.71%. The value for `CCN(CC)CC(O)COC(=O)C(O)(c1ccccc1)C1CCCCC1` (configuration not stated) was inactive: -1.68%; that for `COc1ccc(OP(C)(=O)Nc2ccc(Br)cc2)cc1` (configuration not stated) was inactive: 1.58%. With `CP(=O)(Oc1ccccc1)N1CCOC1=O` (configuration not stated), the inhibition was inactive: 1.58%. As for `CCc1ccc(OP(C)(=O)Nc2cccnc2)cc1` (configuration not stated), the figure is inactive: 4.58%. Turning to `COc1ccccc1OP(C)(=O)Nc1c(C)n(C)n(-c2ccccc2)c1=O` (configuration not stated), the inhibition is inactive: 2.08%.

`O=C(OCCCN1CCCC1)C(O)(c1ccccc1)C1CCCCC1` (configuration not stated): the inhibition was inactive: 1.32%. The value for `CP(=O)(OC12CC3CC(CC(C3)C1)C2)OC12CC3CC(CC(C3)C1)C2` was inactive: -4.68%. `CCOC(=O)c1ccc(NP(C)(=O)Oc2ccc(Cl)cc2)cc1` (configuration not stated): the inhibition is inactive: -1.26%. As to `Cc1nc2ccc3ccccc3c2o1.O=[N+]([O-])c1cc([N+](=O)[O-])c(O)c([N+](=O)[O-])c1`, the inhibition was inactive: 1.49%.

On to `CP(=O)(Nc1ccc(Cl)cc1Cl)Oc1ccccc1` (configuration not stated), for which the inhibition was inactive: 0.71%. As for `CP(=O)(OCCOc1ccccc1)OCCOc1ccccc1`, the inhibition is inactive: 6.2%. Regarding `Cc1cc(C)cc(OP(C)(=O)Nc2cccc(C(F)(F)F)c2)c1` (configuration not stated), the inhibition was inactive: -1.28%. `COc1ccc(OP(C)(=O)Nc2ccccc2Br)cc1` (configuration not stated): the inhibition was inactive: -4.51%. As for `COc1ccccc1OP(C)(=O)Nc1ccc(C)c(C)c1` (configuration not stated), the figure is inactive: -1.23%; as for `Cc1c(NP(C)(=O)Oc2ccc(C(C)C)cc2)c(=O)n(-c2ccccc2)n1C` (configuration not stated), inactive: 5.45%; as for `O=[N+]([O-])c1cc([N+](=O)[O-])c(Nc2ccccn2)c([N+](=O)[O-])c1`, inactive: 7.74%.

For `CCc1ccc(OP(C)(=O)O)cc1`, the inhibition was inactive: -0.36%. As for `CP(=O)(Nc1ccccn1)Oc1ccccc1` (configuration not stated), the inhibition was inactive: 3.89%. Regarding `COc1ccccc1OP(C)(=O)Nc1ccc(C)cc1C` (configuration not stated), the inhibition is inactive: 1.06%. On to `COc1ccccc1OP(C)(=O)Nc1ccc(Br)cc1` (configuration not stated), for which the inhibition is inactive: 1.01%. Regarding `CN(C)CCOC(=O)C(O)(c1ccccc1)C1CCCC1` (configuration not stated), the inhibition is inactive: 2.39%. In the case of `COc1ccc(OP(C)(=O)Nc2ccccn2)cc1` (configuration not stated), the inhibition is inactive: -2.69%.
